Compound potency records, mixed from different reports. Data source: NIAID ChemDB in PubChem.

Common to all: whole-cell or culture tests; species: Aspergillus niger; measure: zone

Blank or dashed fields: not listed here. Lines come from different laboratories, so protocols vary. Zone: diameter of growth inhibition.

structure,dose,method,strain or isolate,result
Cc1ccc2[nH]c3nc(-n4[nH]c(=O)c5ccccc5c4=O)c4ccccc4c3c2c1,12.5 µg/mL,agar diffusion / visual reading,MTCC 281,9 mm
Cc1ccc(S(=O)(=O)CNc2oc3[nH]c(=O)[nH]c(=O)c3c2-c2ccc([N+](=O)[O-])cc2)cc1,50 µg/mL,agar diffusion / agar,-,3 mm
CC(=O)Nc1nc(C)c(-c2n[nH]c(=S)n2N2C(=O)CSC2c2ccccc2)s1,100 µg/mL,agar diffusion,-,19 mm
Cc1nc2ccccc2n(CC(=O)NN2C(=O)CSC2c2ccccc2F)c1=O,50 µg/mL,-,-,9 mm
O=C1CCCC2=C1C(c1ccc(C3C4=C(CCCC4=O)OC4=C3C(=O)CCC4)cc1)C1=C(CCCC1=O)O2,140 µg/disc,agar diffusion,ATCC 10949,7 mm
CSc1ccc(C2OC(c3sc4ccc(Cl)cc4c3Cl)=NN2C(C)=O)cc1,40 µg/mL,agar diffusion / agar,ATCC 9029,29 mm
N=C1O/C(=C/c2ccc(Cl)cc2)C(=O)N1CCCNc1ccnc2cc(Cl)ccc12,200 µg/mL,agar diffusion,-,26 mm
OC(Cn1cncn1)(Cn1cncn1)c1ccc(F)cc1F,30 µg/mL,-,-,100 mm
CSC1=NC(/C=C/c2ccccc2)C(C#N)=C(N)N1,100 µg/mL,agar diffusion,MTCC 282,16 mm
Cc1ccc2[nH]c3c(c2c1)c1ccccc1c1nnc(C(C)(C)C)n13,12.5 µg/mL,agar diffusion / visual reading,MTCC 281,8 mm
CC(=O)Nc1nc(C)c(-c2n[nH]c(=S)n2N2C(=O)CSC2c2ccc(F)cc2)s1,100 µg/mL,agar diffusion,-,12 mm
CSC1=NC(c2ccccc2)C(C#N)=C(N)N1,50 µg/mL,agar diffusion,MTCC 282,16 mm
Cc1nc2ccccc2n(CC(=O)NN2C(=O)CSC2c2ccc(N(C)C)cc2)c1=O,100 µg/mL,-,-,18 mm
CSC1=NC(c2ccc(O)cc2)C(C#N)=C(N)N1,50 µg/mL,agar diffusion,MTCC 282,15 mm
Cc1ccc(S(=O)(=O)CNc2oc3[nH]c(=O)[nH]c(=O)c3c2-c2ccc(Cl)cc2)cc1,100 µg/mL,agar diffusion / agar,-,6 mm
Cc1c(N2C(=O)CSC23C(=O)N(CCCCCCBr)c2ccc(F)cc23)c(=O)n(-c2ccccc2)n1C,100 µg/mL,agar diffusion,MTCC 282,16 mm
Cc1nc2ccccc2n(CC(=O)NN2C(=O)CSC2c2ccccc2Cl)c1=O,100 µg/mL,-,-,11 mm
CC(=Nc1cccc2cccc(N=C(C)c3c(O)ccc4c(C)cc(=O)oc34)c12)c1c(O)ccc2c(C)cc(=O)oc12,500 µg/mL,-,MTCC 1881,18 mm
COc1ccc(-c2nc(S(C)(=O)=O)nc(N)c2C#N)cc1,50 µg/mL,agar diffusion,MTCC 282,19 mm
O=C1NC2(CO1)O/C(=C/c1ccc(Cl)cc1)C(=O)N2CCCNc1ccnc2cc(Cl)ccc12,400 µg/mL,agar diffusion,-,22 mm
O=[N+]([O-])c1ccc(/C=C/C(=NCCCn2ccnc2)c2ccccc2O)cc1.[Cl][Cu],100 µg/mL,agar diffusion,-,18 mm
CS(=O)(=O)c1nc(N)c(C#N)c(-c2ccccc2)n1,100 µg/mL,agar diffusion,MTCC 282,21 mm
O=C(NN1C(=O)CSC1C1C(c2ccccc2)=Nc2ccccc21)N1c2ccccc2C=Cc2ccccc21,500 µg/mL,agar diffusion,MTCC 281,3 mm
Cc1c(N2C(=O)CSC23C(=O)N(CCCCCCBr)c2ccccc23)c(=O)n(-c2ccccc2)n1C,100 µg/mL,agar diffusion,MTCC 282,15 mm
Cc1nc2ccccc2n(CC(=O)NN2C(=O)CSC2c2ccc(Cl)cc2)c1=O,50 µg/mL,-,-,11 mm
CC(=O)Nc1nc(C)c(-c2n[nH]c(=S)n2N2C(=O)CSC2c2cccc([N+](=O)[O-])c2)s1,100 µg/mL,agar diffusion,-,13 mm
COc1ccc(C2CC(=O)C3=C(C2)OC2=C(C(=O)CC(c4ccc(OC)c(OC)c4)C2)C3c2cccc(C3C4=C(CC(c5ccc(OC)c(OC)c5)CC4=O)OC4=C3C(=O)CC(c3ccc(OC)c(OC)c3)C4)c2)cc1OC,20 µg/mL,agar diffusion,ATCC 10949,0 mm
Cc1nn(-c2ccccc2)c2c1C1(C(=O)N(CCCCCCN3C(=O)C4(SCC(=O)N4c4c(C)n(C)n(-c5ccccc5)c4=O)c4ccccc43)c3ccc(F)cc31)c1c(C)nn(-c3ccccc3)c1O2,100 µg/mL,agar diffusion,MTCC 282,16 mm
COc1ccc(C2OC(c3sc4ccc(Cl)cc4c3Cl)=NN2C(C)=O)cc1,40 µg/mL,agar diffusion / agar,ATCC 9029,19 mm
Clc1ccc(C2=NNc3c4ccccc4c4c5cc(Cl)ccc5nc-4n3C2)cc1,12.5 µg/mL,agar diffusion / visual reading,MTCC 281,11 mm
Cc1ccc2c(c1)C1(C(=O)N2CCCCCCN2C(=O)C3(SCC(=O)N3c3c(C)n(C)n(-c4ccccc4)c3=O)c3ccccc32)c2c(C)nn(-c3ccccc3)c2Oc2c1c(C)nn2-c1ccccc1,100 µg/mL,agar diffusion,MTCC 282,17 mm
CC(=O)Nc1nc(C)c(-c2n[nH]c(=S)n2N2C(=O)CSC2c2ccc(Cl)cc2)s1,100 µg/mL,agar diffusion,-,24 mm
N=C1OCC(=O)N1CCCNc1ccnc2cc(Cl)ccc12,400 µg/mL,agar diffusion,-,54 mm
CC(=O)N1N=C(c2sc3ccc(Cl)cc3c2Cl)OC1c1cccc(Oc2ccccc2)c1,40 µg/mL,agar diffusion / agar,ATCC 9029,13 mm
O=C(NN=Cc1ccccc1)c1snnc1C(F)(F)F,150 µg/mL,agar diffusion / agar,MTCC 1344,0 mm
Oc1ccccc1C(/C=C/c1ccccc1)=NCCCn1ccnc1.[Cl][Ni],100 µg/mL,agar diffusion,-,15 mm
COc1ccc2nc3n4c(c5ccccc5c-3c2c1)NN=C(c1ccc(C)cc1)C4,12.5 µg/mL,agar diffusion / visual reading,MTCC 281,8 mm
Cc1nn(-c2ccccc2)c2c1C1(C(=O)N(CCCCCCN3C(=O)C4(SCC(=O)N4c4c(C)n(C)n(-c5ccccc5)c4=O)c4cc(F)ccc43)c3ccc(F)cc31)c1c(C)nn(-c3ccccc3)c1O2,100 µg/mL,agar diffusion,MTCC 282,20 mm
Cc1ccc(-c2c(NCS(=O)(=O)c3ccc(C)cc3)oc3[nH]c(=O)[nH]c(=O)c23)cc1,100 µg/mL,agar diffusion / agar,-,0 mm
CSC1=NC(c2ccc(Cl)cc2)C(C#N)=C(N)N1,50 µg/mL,agar diffusion,MTCC 282,15 mm
CC(=O)N1N=C(c2sc3ccc(Cl)cc3c2Cl)OC1c1ccccc1,40 µg/mL,agar diffusion / agar,ATCC 9029,9 mm
O=C1CC(c2ccccc2)CC2=C1C(c1ccc(C3C4=C(CC(c5ccccc5)CC4=O)OC4=C3C(=O)CC(c3ccccc3)C4)cc1)C1=C(CC(c3ccccc3)CC1=O)O2,40 µg/disc,agar diffusion,ATCC 10949,0 mm
CN(C)c1ccc(C=NNC(=O)c2snnc2C(F)(F)F)cc1,150 µg/mL,agar diffusion / agar,MTCC 1344,0 mm
O=C(NN=CC1C(c2ccccc2)=Nc2ccccc21)N1c2ccccc2C=Cc2ccccc21,1000 µg/mL,agar diffusion,MTCC 281,4 mm
O=C1CCCC2=C1C(c1cccc(C3C4=C(CCCC4=O)OC4=C3C(=O)CCC4)c1)C1=C(CCCC1=O)O2,20 µg/mL,agar diffusion,ATCC 10949,0 mm
O=C(NN=C1CCCCC1)c1snnc1C(F)(F)F,150 µg/mL,agar diffusion / agar,MTCC 1344,0 mm
CSC1=NC(c2ccccc2[N+](=O)[O-])C(C#N)=C(N)N1,25 µg/mL,agar diffusion,MTCC 282,13 mm
Oc1ccccc1C(/C=C/c1ccccc1)=NCCCn1ccnc1,100 µg/mL,agar diffusion,-,14 mm
Cc1nn(-c2ccccc2)c2c1C1(C(=O)N(CCCCCCN3C(=O)C4(SCC(=O)N4c4c(C)n(C)n(-c5ccccc5)c4=O)c4cc(F)ccc43)c3ccccc31)c1c(C)nn(-c3ccccc3)c1O2,100 µg/mL,agar diffusion,MTCC 282,16 mm
CC(C)n1c(/C=C/C=Nn2cn[nH]c2=S)c(-c2ccc(F)cc2)c2ccccc21,200 µg/mL,-,-,10 mm
C=C1CC[C@@H](OC(C)=O)[C@]2(C)[C@H](OC(C)=O)[C@H](OC(=O)CC(C)C)[C@H](OC(C)=O)[C@@]3(CO3)[C@H]2[C@@H](OC(C)=O)[C@@]2(O)[C@H](C)C(=O)O[C@H]2[C@H]1Cl,200 µg/mL,agar diffusion / agar,-,10 mm
Cc1cccc(C)c1N=Nc1c(C)[nH]n(C(=O)c2sc3ccc(Cl)cc3c2Cl)c1=O,40 µg/mL,agar diffusion / agar,ATCC 9029,10 mm
CS(=O)(=O)c1nc(N)c(C#N)c(/C=C\c2ccccc2)n1,25 µg/mL,agar diffusion,MTCC 282,18 mm
O=C(NN=Cc1ccc([N+](=O)[O-])cc1)c1snnc1C(F)(F)F,150 µg/mL,agar diffusion / agar,MTCC 1344,0 mm
O=C(NN1C(=O)CSC1C1C(c2ccccc2)=Nc2ccc(Cl)cc21)N1c2ccccc2C=Cc2ccccc21,500 µg/mL,agar diffusion,MTCC 281,12 mm
COc1ccc(C2CC(=O)C3=C(C2)OC2=C(C(=O)CC(c4ccc(OC)c(OC)c4)C2)C3c2ccc(C3C4=C(CC(c5ccc(OC)c(OC)c5)CC4=O)OC4=C3C(=O)CC(c3ccc(OC)c(OC)c3)C4)cc2)cc1OC,40 µg/disc,agar diffusion,ATCC 10949,0 mm
COC1=CC(=O)C[C@@H](C)[C@]12Oc1c(Cl)c(OC)cc(OC)c1C2=O,12.5 µg/mL,-,-,18 mm
O=[N+]([O-])c1ccc(/C=C/C(=NCCCn2ccnc2)c2ccccc2O)cc1,100 µg/mL,agar diffusion,-,16 mm

Repeating the final 6 entries:

CS(=O)(=O)c1nc(N)c(C#N)c(/C=C\c2ccccc2)n1 ; dose: 25 µg/mL ; method: agar diffusion ; strain or isolate: MTCC 282 ; result: 18 mm
O=C(NN=Cc1ccc([N+](=O)[O-])cc1)c1snnc1C(F)(F)F ; dose: 150 µg/mL ; method: agar diffusion / agar ; strain or isolate: MTCC 1344 ; result: 0 mm
O=C(NN1C(=O)CSC1C1C(c2ccccc2)=Nc2ccc(Cl)cc21)N1c2ccccc2C=Cc2ccccc21 ; dose: 500 µg/mL ; method: agar diffusion ; strain or isolate: MTCC 281 ; result: 12 mm
COc1ccc(C2CC(=O)C3=C(C2)OC2=C(C(=O)CC(c4ccc(OC)c(OC)c4)C2)C3c2ccc(C3C4=C(CC(c5ccc(OC)c(OC)c5)CC4=O)OC4=C3C(=O)CC(c3ccc(OC)c(OC)c3)C4)cc2)cc1OC ; dose: 40 µg/disc ; method: agar diffusion ; strain or isolate: ATCC 10949 ; result: 0 mm
COC1=CC(=O)C[C@@H](C)[C@]12Oc1c(Cl)c(OC)cc(OC)c1C2=O ; dose: 12.5 µg/mL ; result: 18 mm
O=[N+]([O-])c1ccc(/C=C/C(=NCCCn2ccnc2)c2ccccc2O)cc1 ; dose: 100 µg/mL ; method: agar diffusion ; result: 16 mm